The record followed here is PMC4286435.

In data set [1] the test system is C[C@H](C(=O)CC(=O)SCCNC(=O)CCNC(=O)[C@H](O)C(C)(C)COP(=O)(O)OP(=O)(O)OC[C@H]1O[C@@H](n2cnc3c(N)ncnc32)[C@H](O)[C@@H]1OP(=O)(O)O)[C@H]1CC[C@H]2[C@@H]3CCC4=CC(=O)CC[C@]4(C)[C@H]3CC[C@]12C. Put plainly: purified protein. Conditions: pH 8.1; 30.0 °C.
In data set [2] the test system is CC(C)(COP(=O)(O)OP(=O)(O)OC[C@H]1O[C@@H](n2cnc3c(N)ncnc32)[C@H](O)[C@@H]1OP(=O)(O)O)[C@@H](O)C(=O)NCCC(=O)NCCS. Nature of the data set: purified protein. Conditions: pH 8.1; 30.0 °C.

By Km is commonly meant the substrate concentration at which the rate is half of its maximum. A word on the kcat/Km: it is the turnover number divided by the Michaelis constant.

For the substance “FadA5 (Mycobacterium tuberculosis H37Rv)”, in data set [1], the Km worked out at 11.8 ± 1.4 µM and the kcat/Km amounted to 61400 M⁻¹ s⁻¹. The Km in data set [2] was found to be 3.10 ± 0.39 µM.
